Results of unrelated studies side by side (data: NIAID ChemDB).

Common to all: growth or infection tests; organism: HIV-1; read by: syncytia; endpoint: EC50

Blank or dashed fields: not listed here. Rows are shuffled and stem from different studies. ECn: concentration that inhibits the pathogen or its effect by n%.

compound,changes,conditions,cells,strain or isolate,result
Cc1ccc(C)c(CS(=O)c2ncccc2O)c1,-,-,CEM,IIIB,40 µg/mL
Nc1nc(N)n(CCOCP(=O)(O)O)c(=O)c1Cc1ccccc1,-,-,CEM,IIIB,≥300 µM
Nc1ccc(C(=O)c2ccc3[nH]c(=O)oc3c2)cc1,-,-,CEM,IIIB,>40 µg/mL
CCC(=O)Oc1ccc(NC(=O)C2=C(C)OCCS2)cc1C(=O)OC(C)C,RT-V106A,-,CEM,Nevirapine-resistant (RT V106A),>10 µg/mL
Cc1cccc(C(=O)c2ccc3[nH]c(=O)sc3c2)c1,-,-,CEM,IIIB,4.6 µg/mL
CC(CO)NC(=O)c1ccc2c(c1)nc(NCc1cccc3ccccc13)n2C1CCCCCC1,-,2% FBS,H9,-,2 µM
Nc1nc(N)c(C2CC2)c(OCCOCP(=O)(O)O)n1,-,-,CEM,IIIB,≥300 µM
CN1CCN(C(=O)c2ccc3c(=O)c4ccccc4[nH]c3c2)CC1,RT-Y181C,-,CEM,PYR-resistant (RT Y181C),0.5 µg/mL
O=[N+]([O-])c1ccc(O)c(CSc2cccc[n+]2[O-])c1,-,-,CEM,IIIB,10 µg/mL
COc1ccccc1C1CCN(C(=O)c2cc3c([nH]c4ccccc43)c(-c3cccs3)n2)CC1,-,-,C8166,IIIB,3.8 µM
O=C(O)C1=CC(=C(c2ccc(O)c(C(=O)O)c2)c2ccc(O)c(C(=O)O)c2)C=C(Cc2ccc(O)c(C(=O)O)c2)C1=O,-,-,MOLT-4/HUT-78,IIIB,8 µg/mL
COc1ccc(CS(=O)(=O)c2cccc[n+]2[O-])cc1OC,-,-,CEM,IIIB,≥20 µg/mL
CC1=C(C(=O)N(C)c2ccc(Cl)c(C(=O)OC(C)C)c2)SCCO1,RT-V106A,-,CEM,Nevirapine-resistant (RT V106A),>10 µg/mL
Cc1ccc(C)c(C(CO)S(=O)(=O)c2ccccn2)c1,-,-,CEM,IIIB,>100 µg/mL
CC(=O)n1c(=O)sc2cc(C(=O)c3ccccc3)ccc21,-,-,CEM,IIIB,4.6 µg/mL
Nc1nc(N)c(Cl)c(OCCOCP(=O)(O)O)n1,-,-,CEM,IIIB,3.1 µM
COc1cc([C@H]2c3c(cc4c(c3OC)OCO4)C[C@H]3COC(=O)[C@@H]32)cc(C)c1OC,-,-,SUP-T1/H9(HIV-1IIIB) + Sup-T1,IIIB,12.13 µM
Cc1cn([C@H]2C=C[C@@H](COP(=O)(Nc3cc(C(=O)Nc4cc(C(=O)Nc5cc(C(=O)NCCC#N)n(C)c5)n(C)c4)n(C)c3)OC3CCCCC3)O2)c(=O)[nH]c1=O,-,-,CEM/TK-,-,1.31 µM
COc1cccc(C2CCN(C(=O)c3cc4c([nH]c5ccccc54)c(-c4cccs4)n3)CC2)c1,-,-,C8166,IIIB,0.53 µM
CCOC(=O)c1cc(NC(=O)C2=C(CC)OCCS2)ccc1Cl,RT-E138K,-,CEM,TSAO-resistant (RT E138K),1.9 µg/mL
CN(C)c1cccc(C(=O)c2ccc3[nH]c(=O)oc3c2)c1,-,-,CEM,IIIB,>8 µg/mL
Cc1cn([C@H]2C=C[C@@H](COP(=O)(Nc3cc(C(=O)Nc4cc(C(=O)Nc5cc(C(=O)NCCC#N)n(C)c5)n(C)c4)n(C)c3)OC(C)C)O2)c(=O)[nH]c1=O,-,-,CEM/TK-,-,0.88 µM
Cc1cccc(C(=O)c2ccc3c(c2)sc(=O)n3C)c1,-,-,CEM,IIIB,<1.6 µg/mL
Nc1ncnc2c1ncn2[C@@H]1O[C@H](COP(=O)(O)O[C@@H]2[C@H](O)[C@@H](COP(=O)(O)O[C@@H]3[C@H](O)[C@@H](COP(=O)(O)O[C@@H]4[C@H](O)[C@@H](CO)O[C@H]4n4cnc5c(N)ncnc54)O[C@H]3n3cnc4c(N)ncnc43)O[C@H]2n2cnc3c(N)ncnc32)[C@@H](O)[C@H]1O,-,-,PBL,IIIB,>300 µM
COc1cc([C@H]2c3c(cc(OC)c(OC)c3OC)C[C@H]3CSC[C@@H]32)cc(OC)c1OC,-,-,SUP-T1/H9(HIV-1IIIB) + Sup-T1,IIIB,0.43 µM
NC(=O)c1cc2c([nH]c3ccccc32)c(-c2ccc(CO)o2)n1,-,-,C8166,IIIB,0.38 µM
CC1=C([C@H](C)CC/C=C(/C)C(=O)O)CC[C@@]2(C)[C@@H]3CC[C@H]4C(C)(C)C(=O)CC[C@]4(C)[C@]34O[C@@H]4[C@@]12O,-,-,-,-,32.66 µg/mL
CC1=C(C(=O)Nc2ccc(Cl)c(C(=O)OCC3CCC3)c2)SCCO1,RT-Y181C,-,CEM,PYR-resistant (RT Y181C),0.4 µg/mL
COc1ccc(CS(=O)(=O)c2cccc[n+]2[O-])cc1,-,-,CEM,IIIB,≥20 µg/mL
Cc1cccn2c(C3OCCO3)cnc12,-,-,CEM,IIIB,>100 µM
COc1ccc(CS(=O)(=O)c2cc(C(C)(C)C)cc[n+]2[O-])cc1,-,-,CEM,IIIB,>20 µg/mL
CC1=C(C(=O)Nc2cccc(C(=O)OC(C)C)c2)SCCO1,RT-E138K,-,CEM,TSAO-resistant (RT E138K),>10 µg/mL
O=C(O)[C@H]1O[C@@H](Oc2cc3oc(-c4ccc(O)cc4)cc(=O)c3c(O)c2O)[C@H](O)[C@@H](O)[C@@H]1O,-,-,C8166,IIIB,26 µM
Cc1ccc(C)c(C(C)(Cl)S(=O)(=O)c2cccc[n+]2[O-])c1,-,-,CEM,IIIB,>4 µg/mL
CC1=C(C(=O)Nc2cc(C(=O)OC(C)C)c(C)cc2F)SCCO1,RT-L100I,-,CEM,TIBO-resistant (RT L100I),>10 µg/mL
O=C(O)c1cc(Cc2cc(C(c3ccc(O)c(C(=O)O)c3)c3ccc(O)c(C(=O)O)c3)cc(C(=O)O)c2O)ccc1O,-,-,MOLT-4/HUT-78,IIIB,1 µg/mL
O=C(c1cccc([N+](=O)[O-])c1)c1ccc2[nH]c(=O)sc2c1,-,-,CEM,IIIB,>1.6 µg/mL
Cc1ccc(N2CCN(C(=O)c3cc4c([nH]c5ccccc54)c(-c4cccs4)n3)CC2)cc1,-,-,C8166,IIIB,>200 µM
c1ccc(COc2cccnc2SCc2ccccc2)cc1,-,-,CEM,IIIB,>4 µg/mL
Cc1cccn2c(C3OCCS3)cnc12,-,-,CEM,IIIB,>20 µM
O=C(c1cc2c([nH]c3ccccc32)c(-c2cccs2)n1)N1CCN(c2ccccc2)CC1,-,-,C8166,IIIB,102.1 µM
Cc1cccc(CS(=O)c2cccc[n+]2[O-])c1,-,-,CEM,IIIB,≥20 µg/mL
CCCC1=C(C(=O)Nc2ccc(Cl)c(C(=O)OC)c2)SCCO1,RT-E138K,-,CEM,TSAO-resistant (RT E138K),>10 µg/mL
Nc1nc(N)c(CC(=O)O)c(OCCOCP(=O)(O)O)n1,-,-,CEM,IIIB,≥300 µM
O=S(=O)(Cc1ccc(-c2ccccc2)cc1)c1cccc[n+]1[O-],-,-,CEM,IIIB,≥4 µg/mL
Cc1cn([C@H]2C[C@H](N=[N+]=[N-])[C@@H](COP(=O)(Nc3cc(C(=O)Nc4cc(C(=O)NCCC(=N)N)n(C)c4)n(C)c3)OC3CCCCC3)O2)c(=O)[nH]c1=O,-,-,CEM/TK-,-,0.122 µM
Cc1ccc(Cl)c(C(C)S(=O)c2cccc[n+]2[O-])c1,-,-,CEM,IIIB,>0.16 µg/mL
Cc1cccc(CNc2nc3cc(C(=O)NC(C)(CO)CO)ccc3n2C2CCCCCC2)c1C,-,20% FBS,H9,-,5 µM
Nc1nc(N)c(Cc2ccccc2)c(OCCOCP(=O)(O)O)n1,-,-,CEM,IIIB,≥300 µM
Cc1ccccc1C(c1ccccc1)S(=O)(=O)c1cccc[n+]1[O-],-,-,CEM,IIIB,>20 µg/mL
Cc1ccccc1CNc1nc2cc(C(=O)NC(C)(CO)CO)ccc2n1C1CCCCCC1,-,2% FBS,H9,-,4 µM
CCOc1ccccc1CS(=O)c1cccc[n+]1[O-],-,-,CEM,IIIB,>20 µg/mL
C/C(=C\CC[C@@H](C)[C@H]1CC[C@@]2(C)C1=CC[C@H]1[C@@]3(C)CC[C@H](O)C(C)(C)[C@@H]3CC[C@@]12C)C(=O)O,-,-,1A2,deltaTAT/Rev MC99,1 µg/mL
CN(C)c1ccnc(SCc2ccc(Cl)cc2)c1C#N,-,-,CEM,IIIB,>20 µg/mL
Cc1ccn2c(C3OCCO3)cnc2c1,-,-,CEM,IIIB,>100 µM
CCCCNC(=O)c1ccc2c(c1)nc(NCc1cccc3ccccc13)n2C1CCCCCC1,-,20% FBS,H9,-,0.3 µM
COc1cccnc1SCc1ccccc1,-,-,CEM,IIIB,21 µg/mL
CCN(Cc1cccc(C)c1)c1nc2cc(C(=O)NC(C)CO)ccc2n1C1CCCCCC1,-,2% FBS,H9,-,1.5 µM
Cc1ccc[n+]([O-])c1SC(C)c1ccccc1,-,-,CEM,IIIB,>20 µg/mL
CN(C)c1cccc(C(=O)c2ccc3c(c2)sc(=O)n3C)c1,-,-,CEM,IIIB,>40 µg/mL
Cc1ccc(C)c(C(Cc2ccccc2)S(=O)(=O)c2cccc[n+]2[O-])c1,-,-,CEM,IIIB,>4 µg/mL
Nc1nc(N)c(-c2ccccc2)c(OCCOCP(=O)(O)O)n1,-,-,CEM,IIIB,≥300 µM
O=c1[nH]c2ccc(Cc3cccc(F)c3)cc2s1,-,-,CEM,IIIB,>1.6 µg/mL
COc1cc(CS(=O)c2cccc[n+]2[O-])cc(OC)c1OC,-,-,CEM,IIIB,>20 µg/mL

A second listing of 9 rows from above:

compound | changes | conditions | cells | strain or isolate | result
Nc1ccc(C(=O)c2ccc3[nH]c(=O)oc3c2)cc1 | - | - | CEM | IIIB | >40 µg/mL
CN(C)c1cccc(C(=O)c2ccc3[nH]c(=O)oc3c2)c1 | - | - | CEM | IIIB | >8 µg/mL
CC1=C([C@H](C)CC/C=C(/C)C(=O)O)CC[C@@]2(C)[C@@H]3CC[C@H]4C(C)(C)C(=O)CC[C@]4(C)[C@]34O[C@@H]4[C@@]12O | - | - | - | - | 32.66 µg/mL
O=[N+]([O-])c1ccc(O)c(CSc2cccc[n+]2[O-])c1 | - | - | CEM | IIIB | 10 µg/mL
c1ccc(COc2cccnc2SCc2ccccc2)cc1 | - | - | CEM | IIIB | >4 µg/mL
COc1cc([C@H]2c3c(cc4c(c3OC)OCO4)C[C@H]3COC(=O)[C@@H]32)cc(C)c1OC | - | - | SUP-T1/H9(HIV-1IIIB) + Sup-T1 | IIIB | 12.13 µM
Nc1nc(N)n(CCOCP(=O)(O)O)c(=O)c1Cc1ccccc1 | - | - | CEM | IIIB | ≥300 µM
Cc1ccc(Cl)c(C(C)S(=O)c2cccc[n+]2[O-])c1 | - | - | CEM | IIIB | >0.16 µg/mL
CCCC1=C(C(=O)Nc2ccc(Cl)c(C(=O)OC)c2)SCCO1 | RT-E138K | - | CEM | TSAO-resistant (RT E138K) | >10 µg/mL